Laboratory results as given in patent US20140336126A1.

Target: GS-TAP-tagged Optn (human) (UniProt Q96CV9)
Experiment: TAP of GS-tagged Optn from HEK-293 cells, LC-MSMS

## E1B 55K [Human adenovirus type 5] (from UniProt P03243 1-496)
  sequence coverage: 0.01
  unique peptide counts: 2
